Results on 2 substances are retold here after US20160017047.

The test addresses T1, CD20 (B-lymphocyte antigen CD20), human, P11836 1-297.
T1 sequence: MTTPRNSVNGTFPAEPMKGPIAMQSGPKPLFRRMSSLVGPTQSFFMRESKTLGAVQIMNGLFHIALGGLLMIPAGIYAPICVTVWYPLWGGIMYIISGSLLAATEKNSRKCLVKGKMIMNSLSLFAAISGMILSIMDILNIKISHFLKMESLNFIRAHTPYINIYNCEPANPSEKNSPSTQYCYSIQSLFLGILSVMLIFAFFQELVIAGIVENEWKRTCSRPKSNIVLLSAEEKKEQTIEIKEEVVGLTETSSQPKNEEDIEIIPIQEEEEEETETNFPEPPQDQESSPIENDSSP

What is called Kd is the concentration at which binding is half-saturated. High values mean weaker binding, low ones tighter binding. Substance αCD20scFv:SLT-1A version 2 returned a Kd of 101 nM. αCD20scFv:SLT-1A version 1 came in with a dissociation constant Kd of 82.5 nM.
